Target: SseK3(14–335) (Salmonella enterica, UniProt P0DUJ7)
Assay: X-ray crystal structure
Conditions: co-crystallised with UDP-GlcNAc and 5 mM MnCl2, ligand hydrolysed in crystal; Mn2+; active site

Amino acid sequences for entries named in this document (tags omitted). Residues count along the entry.
UniProt P0DUJ7, 14-335 limits assumed: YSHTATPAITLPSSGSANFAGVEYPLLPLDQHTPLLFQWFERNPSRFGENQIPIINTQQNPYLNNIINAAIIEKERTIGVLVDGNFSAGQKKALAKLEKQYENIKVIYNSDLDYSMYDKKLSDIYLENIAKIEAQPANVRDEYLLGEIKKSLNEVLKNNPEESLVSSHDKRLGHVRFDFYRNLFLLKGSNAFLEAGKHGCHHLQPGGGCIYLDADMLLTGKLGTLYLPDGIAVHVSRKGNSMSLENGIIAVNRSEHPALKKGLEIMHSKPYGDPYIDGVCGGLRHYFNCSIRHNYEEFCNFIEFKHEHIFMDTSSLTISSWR

Q: `O=c1ccn([C@@H]2O[C@H](COP(=O)(O)OP(=O)(O)O)[C@@H](O)[C@H]2O)c(=O)[nH]1` was tested. Which X-ray crystal structure did it give?
A: Its X-ray crystal structure is “the ligand is hydrolyzed with the UDP and N-acetyl α-D-glucosamine still present in the active site”.

Q: `CC(=O)N[C@H]1C(O)O[C@H](CO)[C@@H](O)[C@@H]1O` (some centres unmarked) was tested. Which X-ray crystal structure did it give?
A: Its X-ray crystal structure is “the ligand is hydrolyzed with the UDP and N-acetyl α-D-glucosamine still present in the active site”.

— paper PMC5892559, “Structural basis for the glycosyltransferase activity of the Salmonella effector SseK3” (2018)
